Anti-infective test results gathered from many reports (values: NIAID ChemDB through PubChem).

All rows: growth or infection tests

Neighbouring rows are from separate reports. Fold resistance: result on the changed form divided by that on wild type. Blank or dashed fields: not listed here. a–b is a range or a potency band. Percent inhibition refers to the dose given; in toxicity tests it is the harm to the cells. ECn is the concentration giving n% inhibition of infection, replication or growth.

compound | species | dose | measure | method | mutations | strain | cells | value
CC(C)OC(=O)CC1COP(=O)(CO[C@H](C)Cn2cnc3c(NC(=O)C(C)C)ncnc32)OC1 | Hepatitis B virus | 1 µM | inhibition | PCR | - | Genotype D | HepaRG | ≤30%
Nc1ncnc2c1ncn2CCOCP(=O)(O)O | Hepatitis B virus | - | EC50 | - | - | Mutation L526M | HepG2 | 0.09 µM
CCOC(=O)CCC1COP(=O)(CO[C@H](C)Cn2cnc3c(N)ncnc32)OC1 | Hepatitis B virus | 1 µM | inhibition | PCR | - | Genotype D | HepaRG | 50–80%
C[C@@]1(O)[C@H](O)[C@@H](CO)O[C@H]1c1c[nH]c2c(N)ncnc12 | Hepatitis C virus | 10 µg/mL | inhibition | MTT | - | - | HeLa-5B | 11.56%
C[C@H](Cn1cnc2c(N)ncnc21)OCP1(=O)OCC(CCC(=O)OC2CCCC2)CO1 | Hepatitis B virus | 1 µM | inhibition | PCR | - | Genotype D | HepaRG | 50–80%
CC(C)(CO)C(=O)SCCOP(=O)(NCc1ccccc1)OC[C@H]1O[C@@H](n2cnc3c(=O)[nH]c(N)nc32)[C@](C)(O)[C@@H]1O | Hepatitis C virus | - | fold resistance | replicon | Y93N | GT1a | Replicon cells | 1.01
C[C@@]1(O)[C@H](O)[C@@H](CO)O[C@H]1n1ccc2c(N)ncnc21 | Hepatitis C virus | 10 µg/mL | inhibition | MTT | - | - | HepG2-5B | 0%
CC[C@H]1C[C@]1(NC(=O)[C@@H]1C[C@@H]2CN1C(=O)[C@H](C(C)(C)C)NC(=O)OCC(C)(C)CCCCc1cccc3c1CN(C3)C(=O)O2)C(=O)NS(=O)(=O)C1CC1 | Hepatitis C virus | - | EC50 | antigen | - | S52 | Huh7.5 | 1.662 µM
Clc1ccc(Cn2c(CN3CCCC3)nc3ccccc32)cc1 | Hepatitis C virus | 12.5 µM | inhibition | luciferase / replicon | - | 1b Con1 | Huh7 | 71.91%
CCCCCCOC(=O)CC1COP(=O)(CO[C@H](C)Cn2cnc3c(N)ncnc32)OC1 | Hepatitis B virus | 1 µM | inhibition | PCR | - | Genotype D | PHH | ≤30%
CCC(CCC(C)C1CCC2C3C[C@@H](O)[C@@]4(O)C[C@@H](O)CCC4(C)C3CCC12C)C(C)C | Hepatitis B virus | 50 µg/mL | inhibition | antigen | - | - | HepG2 2.2.15 | 32.2%
CC(C)OC(=O)[C@H](C)N[P@](=O)(OC[C@H]1O[C@@](C#N)(c2ccc3c(N)ncnn23)[C@](C)(O)[C@@H]1OC(=O)C(C)C)Oc1ccccc1 | Hepatitis C virus | - | fold resistance | luciferase | L31V | 1b Con1 | 1C | 1.6
CC(C)(C)OC(=O)N[C@@H]1CCCCC/C=C\[C@@H]2C[C@@]2(C(=O)NS(=O)(=O)C2CC2)NC(=O)[C@@H]2C[C@@H](OC(=O)N3Cc4cccc(F)c4C3)CN2C1=O | Hepatitis C virus | - | EC50 | antigen | - | JCH4 | Huh7.5 | 0.097 µM
COc1ccc(Sc2nc(N)nc3c2ncn3CCOCP(=O)(OCC(F)(F)F)OCC(F)(F)F)cc1 | Hepatitis B virus | - | EC50 | - | - | Mutations L528M M552V | Huh7 | 2 µM
C=CC(=O)NCC(=O)N1C[C@H](Oc2nccc3ccc(Br)cc23)C[C@H]1C(=O)N[C@]1(C(=O)NS(=O)(=O)C2CC2)C[C@H]1C=C | Hepatitis C virus | - | EC50 | luciferase | - | 1b R155K | - | 0.815 µM
COC(=O)N[C@H](C(=O)N1CCC[C@H]1c1ncc(-c2ccc(-c3ccc(-c4cnc([C@@H]5CCCN5C(=O)[C@@H](NC(=O)OC)C(C)C)[nH]4)cc3)cc2)[nH]1)C(C)C | Hepatitis C virus | 0.00016 µM | inhibition | luciferase / replicon | - | 1b Con1 | Huh7 | 97.59%
COC(=O)CC1COP(=O)(CO[C@H](C)Cn2cnc3c(N)ncnc32)OC1 | Hepatitis B virus | 1 µM | inhibition | PCR | - | Genotype D | PHH | ≤30%
Cc1cn([C@H]2O[C@@H](CO)[C@H](O)[C@H]2F)c(=O)[nH]c1=O | Hepatitis B virus | 0.2 µM | inhibition | - | - | WILD TYPE | HepG2 | 94%
CC(C)OC(=O)CC1COP(=O)(CO[C@H](C)Cn2cnc3c(N)ncnc32)OC1 | Hepatitis B virus | 1 µM | inhibition | PCR | - | Genotype D | PHH | ≤30%
Nc1nc(=O)n([C@@H]2C=C[C@H](CO)O2)cc1F | Hepatitis B virus | 0.01 µM | inhibition | - | - | WILD TYPE | HepG2 | 93%
CCOC(=O)CC1COP(=O)(CO[C@H](C)Cn2cnc3c(NC(C)=O)ncnc32)OC1 | Hepatitis B virus | 1 µM | inhibition | PCR | - | Genotype D | HepaRG | 50–80%
[N-]=[N+]=N[C@]1(CO)O[C@@H](n2ccc(N)nc2=O)[C@H](O)[C@@H]1O | Hepatitis C virus | - | fold resistance | luciferase | N142T | Con1 | 1C | 1.6

The last 2 rows once more:

compound	species	dose	measure	method	mutations	strain	cells	value
CCOC(=O)CC1COP(=O)(CO[C@H](C)Cn2cnc3c(NC(C)=O)ncnc32)OC1	Hepatitis B virus	1 µM	inhibition	PCR	-	Genotype D	HepaRG	50–80%
[N-]=[N+]=N[C@]1(CO)O[C@@H](n2ccc(N)nc2=O)[C@H](O)[C@@H]1O	Hepatitis C virus	-	fold resistance	luciferase	N142T	Con1	1C	1.6